The term Kd denotes the equilibrium constant for the complex coming apart.

We go through 4 sequences from PMC4739419, “Mutations in the nucleotide binding and hydrolysis domains of Helicobacter pylori MutS2 lead to altered biochemical activities and inactivation of its in vivo function” (BMC Microbiology, 2016).

The target of data set [1] is T1, HpMutS2 (Helicobacter pylori 26695) (UniProt O25338).
T1 sequence (looked up, limits assumed): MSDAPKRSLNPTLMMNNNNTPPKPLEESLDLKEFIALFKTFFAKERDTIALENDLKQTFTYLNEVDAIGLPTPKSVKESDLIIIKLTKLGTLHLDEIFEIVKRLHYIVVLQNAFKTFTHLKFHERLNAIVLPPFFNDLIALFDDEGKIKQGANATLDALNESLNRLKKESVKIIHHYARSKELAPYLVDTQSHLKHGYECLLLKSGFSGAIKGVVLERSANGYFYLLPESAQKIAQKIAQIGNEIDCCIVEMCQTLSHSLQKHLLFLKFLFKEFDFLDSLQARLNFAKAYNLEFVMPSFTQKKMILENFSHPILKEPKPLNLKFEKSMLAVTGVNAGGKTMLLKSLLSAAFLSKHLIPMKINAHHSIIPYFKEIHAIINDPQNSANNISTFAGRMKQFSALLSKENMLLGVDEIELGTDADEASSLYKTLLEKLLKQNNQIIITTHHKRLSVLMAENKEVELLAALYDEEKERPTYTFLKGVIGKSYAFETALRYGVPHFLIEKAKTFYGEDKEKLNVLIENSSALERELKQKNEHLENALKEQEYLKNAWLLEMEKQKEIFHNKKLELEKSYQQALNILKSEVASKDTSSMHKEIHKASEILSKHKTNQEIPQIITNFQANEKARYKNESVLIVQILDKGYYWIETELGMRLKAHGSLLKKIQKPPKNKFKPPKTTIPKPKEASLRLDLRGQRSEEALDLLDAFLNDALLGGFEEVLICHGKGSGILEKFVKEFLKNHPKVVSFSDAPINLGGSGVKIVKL
The data set can be described thus: competition with a labelled probe. The conditions noted are these: unlabelled ssDNA chase of preformed complex; EMSA: 0.16 nM DNA, buffer A (50 mM Tris pH 8.0, 50 mM NaCl, 1 mM DTT per Fig. S3 legend) with 0.1 ug/ul BSA, NaCl 110 mM, no divalent metal stated, 30 min on ice; recombinant protein; protein details: C-terminal His6; label: 5'-32P; single-stranded DNA.

The target in data set [2] is T1, HpMutS2 (Helicobacter pylori 26695). In words: EMSA. As to conditions: EMSA: 0.16 nM DNA, buffer A (50 mM Tris pH 8.0, 50 mM NaCl, 1 mM DTT per Fig. S3 legend) with 0.1 ug/ul BSA, NaCl 110 mM, no divalent metal stated, 30 min on ice, recombinant protein, protein details: C-terminal His6, label: 5'-32P. For orientation: A gel shift assay detects complexes by their altered migration in electrophoresis.

The mark [3] stands for this setting: no nucleotide, folded or branched DNA.

The exact form of at least one protein or probe is not confirmed. For some assays here: Weaker means in comparison with the reference protein, sequence or condition of that experiment. Protein sequences can lack the tags named with them. For some assays here: At least one verdict rests on a figure or table, not on a statement of the authors. Whether high values mean tight binding is not given here for every scale.

As to “ATCGATAGTCGGATCCTCCAGACAGCTCCATGTAGCAAGGCACTGGTAGAATTCGGCAGCGTC [ssDNA 63-mer (ODN4)]”, the binding signal (% displaced by 500 nM) in data set [1] was found to be 70. Also, the binding signal (fold lower than no nucleotide) in data set [2] (1 mM ATP, Kd could not be determined, single-stranded DNA) came out at 5. In data set [2] (preformed complex chased with 5 mM ATP, 37 C, single-stranded DNA), the binding signal (% dissociated) came out at 20.
As for “CCGCTACCAGTGATCACCAATGGATTGCTAGGACATCTTTGCCCACCTGCAGGTTCACCC / GGGTGAACCTGCAGGTGATGTTAGCCATGACCTGTGATCACTGGTAGCGG / TAAGACTGGACTCAGCTAGGTCATGGCTAACAT [D-loop]”, the binding result is recorded as “binds” in data set [2] (1 mM ATP, no significant change, folded or branched DNA) and “binds” in data set [2] (setting [3]).
Turning to “GACGCTGCCGAATTCTACCAGTGCCTTGCTACATGGAGCTGTCTGGAGGATCCGACTATCGAT (double strand) [dsDNA 63 bp (ODN0+ODN4)]”, the binding result in data set [2] (1 mM ATP) was “binds more weakly”; in data set [2] (no nucleotide) it was “binds”.
As to “GACGCTGCCGAATTCTACCAGTGCCTTGCTAGGACATCTTTGCCCACCTGCAGGTTCACCC / GGGTGAACCTGCAGGTGGGCAAAGATGTCCATTAGTGGATCCTTAGCACCGTTGTAAGACG / CGTCTTACAACGGTGCTAAGGATGCACTAATCATGGAGCTGTCTAGAGGATCCGACTATCGAT / ATCGATAGTCGGATCCTCCAGACAGCTCCATGTAGCAAGGCACTGGTAGAATTCGGCAGCGTC [Holliday junction]”, the Kd in data set [2] (1 mM ADP, folded or branched DNA) amounted to 22.6 nM; in data set [2] (1 mM ATP, folded or branched DNA) it was 20.8 nM; in data set [2] (1 mM ATPgS, folded or branched DNA) it was 22.5 nM; in data set [2] (setting [3]), 14.4 nM.
